A mixed list of measured activities; the numbers were collected in NIAID ChemDB.

All rows: whole-cell or culture tests

Lines come from different laboratories, so protocols vary. MIC50, MIC90 and the like: level of inhibition, or share of isolates inhibited. a–b is a range or a potency band. Zones are inhibition diameters on agar. An empty or dashed field is not shown.

structure	organism	strain or isolate	mutations	method	setting	endpoint	dose	value
Nc1ncccc1-c1cc(Cc2ccc(COc3ccccn3)cc2)no1	Aspergillus terreus	-	-	broth dilution	-	MIC50	-	0.13 µg/mL
COc1ccc(-c2n[nH]c(COc3nc(C)nc4ccccc34)n2)cc1	Aspergillus flavus	MTCC 277	-	-	-	MIC100	-	50 µg/mL
CCCCCCNC(=S)N/N=C/c1c[nH]c2ccccc12	Aspergillus parasiticus	CMT 0334	-	broth dilution	-	MIC	-	500 µg/mL
CC(C)=CCCC(C)CCO	Aspergillus parasiticus	TISTR 3018	-	broth dilution	-	MIC	-	3600 µg/mL
Cc1coc2c1C(=O)[C@@H]1[C@@](C)(C2)[C@H](O)CC[C@@]1(C)O	Aspergillus spp.	ATCC 293	-	broth dilution	-	MIC	-	>256 µg/mL
CCCCCOc1ccc(-c2cc(-c3ccc(C(=O)N[C@H]4C[C@@H](O)[C@@H](O)NC(=O)[C@@H]5[C@@H](O)[C@@H](C)CN5C(=O)[C@H]([C@H](O)CC(N)=O)NC(=O)[C@H]([C@H](O)[C@@H](O)c5ccc(O)c(OS(=O)(=O)O)c5)NC(=O)[C@@H]5C[C@@H](O)CN5C(=O)[C@H]([C@@H](C)O)NC4=O)cc3)no2)cc1	Aspergillus fumigatus	19 isolates	-	-	-	MFC50	-	>64 µg/mL
CCNC(=S)N/N=C/c1c[nH]c2ccccc12	Aspergillus parasiticus	CMT 0334	-	broth dilution	-	MIC	-	500 µg/mL
COc1cc(-c2n[nH]c(COc3nc(C(F)(F)F)nc4ccccc34)n2)cc(OC)c1OC	Aspergillus flavus	MTCC 277	-	-	-	MIC100	-	12.5 µg/mL
S=C(N/N=C/c1c[nH]c2ccccc12)NC1CCCCC1	Aspergillus parasiticus	CMT 0334	-	broth dilution	-	MIC	-	500 µg/mL
c1ccc(-c2ccc(C(c3ccccc3)n3ccnc3)cc2)cc1	Aspergillus versicolor	ATCC 11730	-	broth dilution	-	MFC	-	200 µg/mL
CCC(C)/C=C1\SC(=O)N(CC(O)(Cn2nccn2)c2ccc(F)cc2F)C1=O	Aspergillus glaucus	-	-	-	-	MIC	-	>100 µg/mL
C[C@H]1[C@H](O)[C@@H](C)/C=C/C=C/C=C/C=C/C=C/C=C/C=C/[C@H](O[C@@H]2O[C@H](C)[C@@H](O)[C@H](N)[C@@H]2O)C[C@@H]2O[C@](O)(C[C@@H](O)C[C@@H](O)CC[C@H](O)[C@@H](O)C[C@@H](O)CC(=O)O[C@H]1C)C[C@H](O)[C@H]2C(=O)O	Aspergillus ochraceus	96919	-	broth dilution	-	MIC	-	0.25 µg/mL
O=C(/C=C/c1ccc(OCCCCCCCCCCCCOc2ccc(/C=C/C(=O)c3ccccc3)cc2)cc1)c1ccccc1	Aspergillus janus	-	-	broth dilution	-	MIC	-	16 µg/mL
C[C@H]1[C@H](O)[C@@H](C)/C=C/C=C/C=C/C=C/C=C/C=C/C=C/[C@H](O[C@@H]2O[C@H](C)[C@@H](O)[C@H](N)[C@@H]2O)C[C@@H]2O[C@](O)(C[C@@H](O)C[C@@H](O)CC[C@H](O)[C@@H](O)C[C@@H](O)CC(=O)O[C@H]1C)C[C@H](O)[C@H]2C(=O)O	Aspergillus terreus	ATCC 10690	-	broth dilution	48 h	MIC100	-	1 µg/mL
COc1ccc(/C=C2\SC(=O)N(CC(O)(Cn3nccn3)c3ccc(F)cc3F)C2=O)cc1	Aspergillus glaucus	-	-	-	-	MIC	-	>100 µg/mL
CC1=C2C3=C4[C@@](C)(C(=O)[C@]2(O)OC1=O)[C@@H]1C[C@@H]1[C@@]4(O)C[C@@H]1[C@]32OC(=O)C3=C2C[C@H]2[C@](O)(COC(=O)/C(C)=C/COC(=O)CCC(=O)OC3)[C@H]3C[C@H]3[C@]12C	Aspergillus spp.	ATCC 293	-	broth dilution	-	MIC	-	128 µg/mL
O=[N+]([O-])c1ccc(NC(=S)N/N=C/c2c[nH]c3ccccc23)cc1	Aspergillus parasiticus	CMT 0334	-	broth dilution	-	MIC	-	500 µg/mL
Cc1ccc(-c2n[nH]c(COc3nc(C(F)(F)F)nc4ccccc34)n2)cc1	Aspergillus flavus	MTCC 277	-	-	-	MIC100	-	50 µg/mL
C[C@H]1[C@H](O)[C@@H](C)/C=C/C=C/C=C/C=C/C=C/C=C/C=C/[C@H](O[C@@H]2O[C@H](C)[C@@H](O)[C@H](N)[C@@H]2O)C[C@@H]2O[C@](O)(C[C@@H](O)C[C@@H](O)CC[C@H](O)[C@@H](O)C[C@@H](O)CC(=O)O[C@H]1C)C[C@H](O)[C@H]2C(=O)O	Aspergillus terreus	NBRC 6346	-	broth dilution	48 h	MIC	-	4 µg/mL
CCC(C)n1ncn(-c2ccc(N3CCN(c4ccc(OC[C@H]5CO[C@](Cn6cncn6)(c6ccc(Cl)cc6Cl)O5)cc4)CC3)cc2)c1=O	Aspergillus lentulus	-	-	broth dilution	-	MIC50	-	1 µg/mL
c1ccc(C2=NN(c3ccccc3)C(c3ccc(OCCCCCCCCOc4ccc(C5CC(c6ccccc6)=NN5c5ccccc5)cc4)cc3)C2)cc1	Aspergillus janus	-	-	broth dilution	-	MIC	-	8 µg/mL
OC(Cn1cncn1)(Cn1cncn1)c1ccc(F)cc1F	Aspergillus glaucus	-	-	-	-	MIC	-	>100 µg/mL
Cc1ccc(-c2c(NCS(=O)(=O)c3ccc(C)cc3)oc3[nH]c(=O)[nH]c(=O)c23)cc1	Aspergillus oryzae	-	-	agar diffusion / agar	-	zone	50 µg/mL	16 mm
NN(Cc1ccccc1)CC(O)(Cn1cncn1)c1ccc(F)cc1F	Aspergillus terreus	ATCC 28301	-	-	-	MIC80	-	2 µg/mL
C[C@H]1[C@H](O)[C@@H](C)/C=C/C=C/C=C/C=C/C=C/C=C/C=C/[C@H](O[C@@H]2O[C@H](C)[C@@H](O)[C@H](N)[C@@H]2O)C[C@@H]2O[C@](O)(C[C@@H](O)C[C@@H](O)CC[C@H](O)[C@@H](O)C[C@@H](O)CC(=O)O[C@H]1C)C[C@H](O)[C@H]2C(=O)O	Aspergillus terreus	-	-	agar diffusion	-	MIC	-	19 µg/mL
OO	Aspergillus fumigatus	-	sakA deletion	agar	-	MIC99	-	4000 µM
Cc1cc(O)c2c(c1)C(=O)c1cc(O)c(O)c(O)c1C2=O	Aspergillus nidulans	-	cclA delta mdpG delta	visual reading	-	MIC100	-	142–284 µM
Cc1ccc(-c2n[nH]c(COc3nc(C)nc4ccccc34)n2)cc1	Aspergillus flavus	MTCC 277	-	-	-	MIC100	-	50 µg/mL
CC(C)C[C@H](N)C(=O)O	Aspergillus terreus	MRCM 25730	-	broth dilution	-	MFC100	-	>18000 µg/mL
FC(F)(F)c1nc(OCc2nc(-c3ccccc3)n[nH]2)c2ccccc2n1	Aspergillus flavus	MTCC 277	-	-	-	MIC100	-	25 µg/mL
CN=C1NN(C(=O)Cc2cc(=O)oc3cc(O)ccc23)C(c2c(O)c3ccccc3oc2=O)=CS1	Aspergillus ochraceus	-	-	broth dilution	-	MIC50	-	0.1 µg/mL
CC(C)S(=O)(=O)N1CCN(c2cnn(-c3cc(F)cc(F)c3)c(=O)c2OC2CCC(F)C2)CC1	Aspergillus terreus	ND125	-	broth dilution	-	MIC	-	0.5 µg/mL
CCOc1ccc2c(C(=O)N3NC(=NC)SC=C3c3cc4ccccc4oc3=O)cc(=O)oc2c1	Aspergillus ochraceus	-	-	broth dilution	-	MIC50	-	0.1 µg/mL
c1ccc(C2=NN(c3ccccc3)C(c3ccc(OCCOc4ccc(C5CC(c6ccccc6)=NN5c5ccccc5)cc4)cc3)C2)cc1	Aspergillus janus	-	-	broth dilution	-	MIC	-	16 µg/mL
Cc1ccc(S(=O)(=O)CNc2oc3[nH]c(=O)[nH]c(=O)c3c2-c2ccc([N+](=O)[O-])cc2)cc1	Aspergillus oryzae	-	-	agar diffusion / agar	-	zone	50 µg/mL	12 mm
CCC(C)n1ncn(-c2ccc(N3CCN(c4ccc(OC[C@H]5CO[C@](Cn6cncn6)(c6ccc(Cl)cc6Cl)O5)cc4)CC3)cc2)c1=O	Aspergillus ochraceus	-	-	agar diffusion	-	zone	10 µg/disc	20 mm
O=C(/C=C/c1ccc(OCCCCCCOc2ccc(/C=C/C(=O)c3ccccc3)cc2)cc1)c1ccccc1	Aspergillus janus	-	-	broth dilution	-	MIC	-	8 µg/mL
C[C@@H]1C/C=C/C=C/C=C/C=C/[C@H](OC2O[C@H](C)[C@@H](O)[C@H](N)[C@@H]2O)CC2O[C@](O)(C[C@@H](O)C[C@H]3O[C@@H]3/C=C/C(=O)O1)C[C@H](O)[C@H]2C(=O)O	Aspergillus spp.	Species complex	-	-	-	MIC90	-	32 µg/mL
COc1cc(-c2n[nH]c(COc3nc(C)nc4ccccc34)n2)cc(OC)c1OC	Aspergillus flavus	MTCC 277	-	-	-	MIC100	-	25 µg/mL
C[C@H]1[C@H](O)[C@@H](C)/C=C/C=C/C=C/C=C/C=C/C=C/C=C/[C@H](O[C@@H]2O[C@H](C)[C@@H](O)[C@H](N)[C@@H]2O)C[C@@H]2O[C@](O)(C[C@@H](O)C[C@@H](O)CC[C@H](O)[C@@H](O)C[C@@H](O)CC(=O)O[C@H]1C)C[C@H](O)[C@H]2C(=O)O	Aspergillus terreus	Clinical isolate	-	XTT	-	MFC	-	8–16 µg/mL
Cc1ccc(C(C)C)c(O)c1	Aspergillus fumigatus	ATCC 46645	-	-	-	MIC	-	0.16 µg/mL
CCC(C)n1ncn(-c2ccc(N3CCN(c4ccc(OC[C@H]5CO[C@](Cn6cncn6)(c6ccc(Cl)cc6Cl)O5)cc4)CC3)cc2)c1=O	Aspergillus niger	-	-	broth dilution	-	MIC50	-	2 µg/mL
Cc1ccc2c(c1)C(C=NNC(=O)N1c3ccccc3C=Cc3ccccc31)C(c1ccccc1)=N2	Aspergillus oryzae	MTCC-3567	-	agar diffusion	-	zone	750 µg/mL	12 mm
C[C@@H](c1ncncc1F)[C@](O)(Cn1cncn1)c1ccc(F)cc1F	Aspergillus fumigatus	94 isolates	-	-	-	MFC90	-	2 µg/mL
C[C@@H](c1ncncc1F)[C@](O)(Cn1cncn1)c1ccc(F)cc1F	Aspergillus fumigatus	-	-	-	-	MLC50	-	0.25 µg/mL
O=C1S/C(=C\c2cccs2)C(=O)N1CC(O)(Cn1nccn1)c1ccc(F)cc1F	Aspergillus glaucus	-	-	-	-	MIC	-	>100 µg/mL
CCN=C1NN(C(=O)Cc2cc(=O)oc3cc(O)ccc23)C(c2c(O)c3ccccc3oc2=O)=CS1	Aspergillus ochraceus	-	-	broth dilution	-	MIC50	-	0.1 µg/mL
O=C(/C=C/c1ccc(OCCCCOc2ccc(/C=C/C(=O)c3ccccc3)cc2)cc1)c1ccccc1	Aspergillus janus	-	-	broth dilution	-	MIC	-	8 µg/mL
O=C1S/C(=C\c2ccoc2)C(=O)N1CC(O)(Cn1nccn1)c1ccc(F)cc1F	Aspergillus glaucus	-	-	-	-	MIC	-	>100 µg/mL
C/C1=C\C(=O)c2c(C)coc2C/C(C)=C/CC1	Aspergillus spp.	ATCC 293	-	broth dilution	-	MIC	-	>256 µg/mL
FC(F)(F)c1nc(OCc2nc(-c3ccc(Br)cc3)n[nH]2)c2ccccc2n1	Aspergillus flavus	MTCC 277	-	-	-	MIC100	-	25 µg/mL
CCN=C1NN(C(=O)c2cc(=O)oc3cc(OCC)ccc23)C(c2cc3ccccc3oc2=O)=CS1	Aspergillus ochraceus	-	-	broth dilution	-	MIC50	-	0.1 µg/mL
CCCCCCCCOC(=O)[C@]1(O)C[C@@H](O)[C@@H](O)[C@H](OC(=O)/C=C/c2ccc(O)c(O)c2)C1	Aspergillus nomius	SLV 549	-	absorbance	-	MIC80	-	1250 µg/mL
CCN=C1NN(C(=O)c2cc(=O)oc3cc(OCC)ccc23)C(c2c(O)c3ccccc3oc2=O)=CS1	Aspergillus ochraceus	-	-	broth dilution	-	MIC50	-	0.1 µg/mL
CCCCCOc1ccc(-c2ccc(-c3ccc(C(=O)N[C@H]4C[C@@H](O)[C@@H](O)NC(=O)[C@@H]5[C@@H](O)[C@@H](C)CN5C(=O)[C@H]([C@H](C)O)NC(=O)[C@H]([C@H](O)[C@@H](O)c5ccc(O)cc5)NC(=O)[C@@H]5C[C@@H](O)CN5C(=O)[C@H]([C@H](C)O)NC4=O)cc3)cc2)cc1	Aspergillus fumigatus	93-19	-	-	-	MFC	-	>50 µg/mL
COc1ccc(NC(=S)N/N=C/c2c[nH]c3ccccc23)cc1	Aspergillus parasiticus	CMT 0334	-	broth dilution	-	MIC	-	500 µg/mL
Cc1nc(OCc2nc(-c3ccc(F)cc3)n[nH]2)c2ccccc2n1	Aspergillus flavus	MTCC 277	-	-	-	MIC100	-	50 µg/mL
Cc1ccc(S(=O)(=O)CNc2oc3[nH]c(=O)[nH]c(=O)c3c2-c2ccsc2C=O)cc1	Aspergillus oryzae	-	-	agar diffusion / agar	-	zone	50 µg/mL	14 mm
O=C(NN=CC1C(c2ccccc2)=Nc2ccc(Cl)cc21)N1c2ccccc2C=Cc2ccccc21	Aspergillus oryzae	MTCC-3567	-	agar diffusion	-	zone	1000 µg/mL	13 mm
CCNC(=S)N/N=C/C=C/c1ccccc1	Aspergillus parasiticus	CMT 0334	-	broth dilution	-	MIC	-	500 µg/mL
Cc1ccc2c(c1)C(C1SCC(=O)N1NC(=O)N1c3ccccc3C=Cc3ccccc31)C(c1ccccc1)=N2	Aspergillus oryzae	MTCC-3567	-	agar diffusion	-	zone	500 µg/mL	5 mm
NC(=S)N/N=C(/C=C/c1ccccc1)c1ccccc1	Aspergillus parasiticus	MCT 00334	-	broth dilution	-	MIC	-	500 µg/mL